The results in this text go back to patent publication US8080523B2 (The Regents of the University of California, priority 2004, dated 2011).

Like-named read-outs stand apart in the source and are kept apart here.

A short description of one data set: in vivo. Type of data set: in vivo, rat.
Data set [1] can be described thus: Stability in rat plasma or PBS containing 2% rat plasma at 37° C. It is filed as in vitro ADME. Conditions: in about 5 hours, then steady for 2 days.
Data set [2] is described as follows: Cytotoxicity (% dead cells), human PBMCs. Type of data set: cell-based. As to conditions: 100 nM, 48 hours.
A short description of data set [3]: Cytotoxicity (% dead cells), Jurkat cells. Type of data set: cell-based. Conditions: 100 nM, 48 hours.
A short description of data set [4]: Cytotoxicity (% dead cells), RPMI 8226 myeloma. As to conditions: 100 nM, 48 hours. It is filed as cell-based.
For the next data set, the system named is tester strain TA97A. The data set is described as follows: Ames test. Type of data set: cell-based. Conditions: 100 nM. (The Ames test uses bacterial strains that need an amino acid and regain growth without it when mutated back.)
The next data set has as its system conscious rats. Briefly: Heart rate variability analysis (electrocardiogram) in conscious rats. It is filed as in vivo, rat.
The subject of data set [5] is acute EAE induced by the transfer of MBP-activated PAS TEM cells into Lewis rats. Type of data set: in vivo, rat. Conditions: 10 μg/kg/day for 5 days.

`CC[C@H](C)[C@@H]1NC(=O)[C@@H](NC(=O)[C@H](CO)NC(=O)[C@H](CCCNC(=N)N)NC(=O)COCCOCCNC(=O)[C@@H](N)Cc2ccc(OP(=O)(O)O)cc2)CSSC[C@@H](C(=O)O)NC(=O)[C@H]([C@@H](C)O)NC(=O)CNC(=O)[C@@H]2CSSC[C@@H]3NC(=O)[C@H](CCC(N)=O)NC(=O)[C@H](Cc4ccccc4)NC(=O)[C@H](C)NC(=O)[C@H]([C@@H](C)O)NC(=O)[C@H](CSSC[C@H](NC(=O)[C@H](Cc4ccccc4)NC(=O)[C@H](CO)NC(=O)[C@H](CC(C)C)NC(=O)[C@H](CCCNC(=N)N)NC(=O)[C@H](Cc4ccc(O)cc4)NC(=O)[C@H](CCCCN)NC(=O)[C@H](CCSC)NC(=O)[C@H](CO)NC(=O)[C@H](Cc4cnc[nH]4)NC(=O)[C@H](CCCCN)NC3=O)C(=O)N[C@@H](CCCNC(=N)N)C(=O)N[C@@H](CCCCN)C(=O)N[C@@H]([C@@H](C)O)C(=O)N2)NC(=O)[C@H](CCCNC(=N)N)NC(=O)[C@H](CO)NC(=O)[C@H](CCCCN)NC(=O)[C@@H]2CCCN2C(=O)[C@H]([C@@H](C)CC)NC(=O)[C@H]([C@@H](C)O)NC(=O)[C@H](CC(=O)O)NC1=O` [ShK(L5)]: the level at time molar at 24 h in the data set “in vivo” (Lewis, rat, in vivo, sc, 10 mg/kg/day, repeated daily administration 10 mg/kg/day, measured 24 hours after injection, read-out: steady-state level) is roughly 0.3 nM. Moreover, the level at time molar at 24 h in the data set “in vivo” (rat, in vivo, sc, 10 mg/kg, almost 24 hours after a single subcutaneous injection of 10 mg/kg, read-out: steady-state level in the blood) came out at 0.3 nM. Moreover, the level at time molar at 7 h in “in vivo” (rat, in vivo, sc, 200 mg/kg, 200 mg/kg s.c., over 420 minutes, read-out: baseline serum level) was roughly 0.3 nM. The half-life (in general, how long it takes for the measured level to halve) in the data set “in vivo” (rat, in vivo, sc, single exponential fit, 200 mg/kg s.c., read-out: circulating half-life) was roughly 50 min. Further, the “Kv1.3- versus Kv1.1-blocking activities of sera from treated rats (in vivo stability)” value in the data set “in vivo” (serum samples from ShK(L5)-treated animals) is recorded as “same selectivity”. The “disappearance from blood, intravenous versus subcutaneous” value in the data set “in vivo” (single injections of 10 mg/kg) was “same time course”. In addition, the “time to peak level” value in the data set “in vivo” (single subcutaneous injection of 200 mg/kg) is 30 min. The “reduction in Kv1.3-blocking activity” value in data set [1] is listed as 50%. The cytotoxicity at 0.1 µM in data set [2] was found to be 7.5 ± 4.3%. Also, the cytotoxicity at 0.1 µM in data set [3] is 5.5 ± 3.3%. The same compound displayed a cytotoxicity at 0.1 µM in data set [4] of 6.5 ± 2.1%. For the same compound, the “Ames Test” value with tester strain TA97A is “Negative”. Further, the “effect on heart rate or the standard HRV parameters” value in the data set on conscious rats (10 mg/kg/day on day-2) is listed as “no effect”. In the data set with conscious rats (acute, 10 μg/kg), the CV % came out at 9.2 ± 2.2%, the “HF (%)” value turned out to be 53 ± 10%, the Heart rate was 311 ± 20 and the “LF (%)” value is given as 47 ± 10%. In the data set on conscious rats (acute, 10 μg/kg), this compound registered an SDNN of 17.8 ± 4.4 and a rMSSD of 9.8 ± 3.5. Moreover, the “signs of toxicity in prevention trials” value in data set [5] is on record as “No signs of toxicity”.
